Anti-infective test results gathered from many reports (values: NIAID ChemDB through PubChem).

Shared fields: growth or infection tests

Percent inhibition refers to the dose given; in toxicity tests it is the harm to the cells. Neighbouring rows are from separate reports. ECn: concentration that inhibits the pathogen or its effect by n%. An empty or dashed field is not shown.

SMILES,agent,strain or isolate,cells,method,read-out,tested at,value
O=C(NCc1ccc(Cl)cc1)c1c[nH]c2ccc(CCCO)cc2c1=O,Human cytomegalovirus,P53 GDG-resistant,-,plaque count,EC50,-,0.4 µM
OC[C@H]1O[C@@H](n2c(Cl)nc3cc(Cl)c(Cl)cc32)[C@H](O)[C@@H]1O,Human cytomegalovirus,TOWNE,-,virus yield,EC95,-,1.1 µM
CC(=O)N[C@@H](CC(C)C)C(=O)N[C@@H](CC(C)C)C(=O)N[C@H](C=O)CCCN=C(N)N,Human coronavirus,229E 229E,MRC-C,plaque count,EC50,-,0.4 µg/mL
Nc1nc2c(ncn2COC(CO)CO)c(=O)[nH]1,Human herpesvirus 6,-,Human T-lymphoblasts,-,EC50,-,7.2 µM
Nc1nc(NCC2CC2)c2ncn(/C=C3/C[C@@H]3CO)c2n1,Human herpesvirus 6,TYPE 6A,HSB-2,flow cytometry,EC50,-,108 µM
Nc1nc2c(ncn2[C@@H]2C[C@H](CO)[C@H]2CO)c(=O)[nH]1.O=C(O)P(=O)(O)O,Human cytomegalovirus,PAAR,MRC-5,plaque count,EC75,-,0.93 µM
O=C(NCc1ccc(Cl)cc1)c1c[nH]c2c(F)cccc2c1=O,Human cytomegalovirus,AD169,-,plaque count,EC90,-,27.1 µM
O=C(O)P(=O)(O)O,Human cytomegalovirus,PAAR,MRC-5,plaque count,EC75,-,122 µM
C=C1[C@H](CO)[C@@H](O)C[C@@H]1n1cnc2c(=O)[nH]c(N)nc21,Human papillomavirus,-,WI-38,plaque count,EC50,-,2.8 µM
Nc1nc2c(ncn2CCC(CO)CO)c(=O)[nH]1,Human herpesvirus 7,SB,HUMAN CORD BLOOD CELLS,antigen,inhibition,5 µM,21%
C=CCOc1nc(N)nc2c1ncn2/C=C1/C[C@@H]1CO,Human herpesvirus 6,TYPE 6B,HSB-2,flow cytometry,EC50,-,<1.1 µM
Nc1ncnc2c1ncn2C=C1CC1CO,Human cytomegalovirus,VR6264 (ganciclovir-resistant),-,plaque count,EC90,-,2.1 µM
CCCOc1nc(N)nc2c1ncn2/C=C1/C[C@@H]1CO,Human herpesvirus 6,TYPE 6A,HSB-2,flow cytometry,EC50,-,1.1 µM
Nc1ccn(C[C@@H](CO)OCP(=O)(O)O)c(=O)n1,Human cytomegalovirus,Towne (ganciclovir- foscarnet-susceptible),MRC-5,plaque count,EC75,-,0.97 µM
Nc1ccn([C@@H]2C[C@H](CO)[C@@H](O)[C@H]2O)c(=O)n1,Human coronavirus,Strain 229E 229E,WI-38,cytopathic effect,EC50,-,7 µg/mL
Nc1nc2c(ncn2[C@@H]2C[C@H](CO)[C@H]2CO)c(=O)[nH]1,Human cytomegalovirus,AD169 (ganciclovir foscarnet-susceptible),MRC-5,plaque count,EC75,-,7.23 µM
O=C(NCc1ccc(Cl)cc1)c1c[nH]c2ccc(CCCO)cc2c1=O,Human cytomegalovirus,DAVIS,-,virus yield,EC90,-,3.9 µM
Nc1nc2c(ncn2/C=C2/CC2(CO)CO)c(=O)[nH]1,Human herpesvirus 6,TYPE 6A,HSB-2,flow cytometry,EC50,-,7.8 µM
Nc1nc2c(ncn2[C@@H]2C[C@H](CO)[C@H]2CO)c(=O)[nH]1,Human herpesvirus 7,-,SupT1,syncytia,EC50,-,3.4 µM
OC[C@H]1O[C@@H](n2c(Br)nc3cc(Cl)c(Cl)cc32)[C@H](O)[C@@H]1O,Human cytomegalovirus,1038RB (ASP344GLU AND ALA355VAL),MRC-5,hybridisation,EC50,-,>20 µM
Nc1ncnc2c1ncn2/C=C1/CC1(CO)CO,Human herpesvirus 6,TYPE 6A,HSB-2,flow cytometry,EC50,-,17.8 µM
Cn1cc(C(=O)NCc2ccc(Cl)cc2)c(=O)c2cc(CN3CCOCC3)ccc21,Human cytomegalovirus,DAVIS,HFF,plaque count,inhibition,3.7 µM,90%
NC(=O)c1c(Cl)c(-c2cccnc2)n2c1CCCC2,Human herpesvirus 7,HRK,SupT1,-,EC50,-,0.0143 µM
CCCSc1nc(N)nc2c1ncn2/C=C1/C[C@@H]1CO,Human herpesvirus 6,TYPE 6B,HSB-2,flow cytometry,EC50,-,3 µM
N#CC1C(c2ccc(Cl)cc2)Nc2ccccc2S1(=O)=O,Human herpesvirus 7,-,SupT1,flow cytometry,EC50,-,5.7 µg/mL
NC1=NC2C(C=CN2CC(CO)CCO)C(=O)N1,Human herpesvirus 7,-,SupT1,syncytia,EC50,-,>107 µM
Nc1ccn(C[C@@H](CO)OCP(=O)(O)O)c(=O)n1,Human herpesvirus 6,TYPE 6B,MOLT-3,-,EC50,-,3.1 µg/mL

For reference, 2 entries again:

SMILES	agent	strain or isolate	cells	method	read-out	tested at	value
Nc1nc2c(ncn2CCC(CO)CO)c(=O)[nH]1	Human herpesvirus 7	SB	HUMAN CORD BLOOD CELLS	antigen	inhibition	5 µM	21%
Nc1nc2c(ncn2[C@@H]2C[C@H](CO)[C@H]2CO)c(=O)[nH]1.O=C(O)P(=O)(O)O	Human cytomegalovirus	PAAR	MRC-5	plaque count	EC75	-	0.93 µM